{
  "source": "PubChem BioAssay AID652007",
  "about": "(The Scripps Research Institute Molecular Screening Center, 2013)",
  "note": "Only a part is listed here, and it is no random draw. Calls of active or inactive are those of the source. Cut-off read from the data, not from the text of the source: active = inhibition above about 36%; inactive = the rest.",
  "data": [
    {"test_system": "transactivating tegument protein VP16 (Human herpesvirus 1)", "experiment": "compounds suppressing VP16-driven luciferase signal – cell-based, luminescence, single concentration, counter-screen for SRC2 inhibitor project (AID 652007)", "settings": "cell-based VP16 transactivation luciferase reporter, at 8.9 µM, stronger effect = higher value", "values": [
      {"molecule": "C[N+]1=C2C=CC=CC=C2SC12C([N+](=O)[O-])=CC([N+](=O)[O-])=C[C-]2[N+](=O)[O-]", "note": "(stereo unspecified)", "inhibition": "active: 88.9%"}
    ]}
  ]
}
